Screening data, single-dose tests

Data taken from ChEMBL document CHEMBL3988442, “University of Dundee, Small-Polar-MMV Screening Library” (2021).

Mtb glucose medium: 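Phenotypic screen: M. tuberculosis growth, glucose 7H9 medium, 3 days; the read-out is not stated. Concentration: 50 µM. Direction is inferred from retests: higher values go with more growth inhibition. Size under these conditions: about 69,000 compounds, about 760 of them at 50% or above in at least one test.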
Mtb cholesterol medium: 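Growth of Mycobacterium tuberculosis over 4 days (cholesterol / DPPC medium with tyloxapol); the read-out is not stated. Concentration: 50 µM. Direction is inferred from retests: higher values go with more growth inhibition. Of about 69,000 compounds tested this way, about 370 (0.54%) reached 50% or more in at least one test.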

The filed quantity is “Percent Effect” (%). The record does not define 0% and 100%; most values in the screen are far below 50% and negative numbers occur (in some assays of this library far below -100). Many other results are left out here, so strong results are more common than in the screen. Two or more numbers in one place are separate tests of the same structure; such repeats can differ widely. A dash means the value is not listed here; it may have been measured.

structure,Mtb glucose medium,Mtb cholesterol medium
O=C(NCc1ccc(OCC2CC2)nc1)C1COc2ccccc2O1 (stereo not drawn),-2.171,-
Cc1cc(F)cc(NC(=O)N(C)CC(C)(CO)CO)c1,29.33 & 1.746,13.72
Cc1nc(C2CCCN2Cc2ccn(C)c(=O)c2)no1 (stereo not drawn),-15.32,-
O=C(CN1CCCC(c2ccn[nH]2)C1)Nc1nc2c(s1)CCCC2 (stereo not drawn),50.22,16.25
COc1cccc(-c2noc3c2CN(c2ncnc4c2CCC4)CC3)c1,21.03,-
Cc1ccc(CN(CCCN2CCOCC2)Cc2cncn2C)o1.O=C(O)CC(O)(CC(=O)O)C(=O)O,23.3,-
CC(C)CN1Cc2nc(N3CCCC(C)C3)ncc2C1=O (stereo not drawn),-20.83,-
Cc1nc(CCNc2ccc(-c3nc(C)c(C)c(=O)[nH]3)cn2)cs1,27.25,-11.68
CSCC(C)(O)CNc1ncccc1C(F)(F)F (stereo not drawn),4.129,-
Cc1ccc(C)c(-n2ncc(NC(=O)NC3(C)CCOC3)c2C)c1 (stereo not drawn),-30.67,-
COCCN(C)Cc1cc(Cl)ccc1OCC(O)CN1CCCCCC1 (stereo not drawn),14.67,51.22
CNC(=O)c1cccc(CCNc2ccccn2)c1,-4.418 & 4.866,-7.744
CN(C)CC(=O)N1CCC2(CCc3cc(-c4cccnc4)ccc32)CC1.O=C(O)C(F)(F)F.O=C(O)C(F)(F)F,41.98 & 46.32,29.85
CCN(CC)CCn1c(NC(=O)c2scnc2C)nc2ccccc21,9.543,-
CC(C(N)=O)n1nc(-c2cccs2)cc(N)c1=O (stereo not drawn),7.542,-
CCN(CC)CCNC(=O)c1cc(C(C)C)nc(N2CCCC2)n1,-33.27,-
Cc1ccc(N2CCCN(C(=O)CC3C=CCC3)CC2)nn1 (stereo not drawn),0.232 & 7.806,-0.6294
CC(C)c1nc(N2CCC(N3CCCC(O)C3)CC2)c2cnn(C)c2n1 (stereo not drawn),19.4,-
O=S(=O)(NCCNc1ccc(-n2cccn2)nn1)c1ccccc1,73.42,63.29
c1ccc2sc(N3CCOC(Cn4cccn4)C3)nc2c1 (stereo not drawn),51.48,-
COC(=O)NCCC(=O)NC(c1ccc(Cl)cc1)C(F)(F)F (stereo not drawn),20.35 & -1.261,-
COc1ccc(C(=O)CCc2nc(C3CC3)no2)cc1,22.64,47.13
O=C(Cc1cccc(F)c1)NCCNCc1cccnc1,-1.96,-
CC(C)(NC(=O)c1cnc(-c2ccccc2F)s1)C(N)=O,-19.77 & 3.696,-
Cc1nonc1CN(C)CC1(O)CCCN(CCC2CCCCC2)C1=O (stereo not drawn),-,-13.45
Fc1ccccc1CN1CCC[C@H](Cn2nnc(-c3cccs3)n2)C1,2.878,-28.16 & 57.08
CC(Cn1cc(Br)cn1)C(=O)Nc1ccc(Br)cn1 (stereo not drawn),55.2,-
COc1ncc(CN2CCOC(Cc3cccc4ccccc34)C2)cn1 (stereo not drawn),-,-25.26 & 58.78
Cc1csc(N2CCCN(c3cc(C)nc(C)c3C#N)CC2)n1,55.15,-
Cc1ccc(-c2nnn(CCN3C(=O)CCC3=O)n2)cc1,-25.94,-15.59
c1ccc(-c2nc(SCc3nnc(C4CC4)o3)n[nH]2)nc1,-41.53 & 6.052,-
Cc1ccc(CN2CCC3(CCCN(Cc4ccc(F)c(F)c4)C3)C2)o1 (stereo not drawn),51.83,-
CCc1cn[nH]c1C1CCN(c2cc(C)c3cccc(OC)c3n2)CC1,53.09,-
CCc1ncc(C(=O)N2CCN(C(=O)COc3ccccc3)CC2)cn1,20.22,-
Cc1csc(C(Cc2cccs2)NCc2cc3c(cc2C)OCO3)n1 (stereo not drawn),-,36.06 & -13.6
O=C(c1ccc2c(c1)CCC2)N1CCN(c2ccc(Cl)cn2)CC1,10.88,4.905
OC1COCCN(Cc2cc(-c3ccccc3OC(F)(F)F)no2)C1 (stereo not drawn),-37.51,-
CCN(Cc1ccccc1)C(=O)CCN1C[C@@H](C(=O)O)[C@H](C2CC2)C1,-14.9 & 15.43,-
CNc1cc(C)nc(N2Cc3cnn(Cc4ccc(F)cc4)c3C2)n1,89.01,77.9 & 79.23
C=C(C)COc1ccc(C(=O)NCCn2c(C)cc(C)nc2=O)cc1,28.65,6.643
Cc1ccc(C(=O)NS(C)(=O)=O)cc1-n1cccc1,32.2,-
Fc1cccc(-c2nnn3c2COC(CNc2ncccn2)C3)c1 (stereo not drawn),-24.79,-
Cc1ccc(S(=O)(=O)NCC(O)c2ccoc2)s1 (stereo not drawn),-,-7.287
c1ccc(-c2nc(CCNCc3cccnc3)co2)cc1,-,4.346 & -1.059
O[C@@H]1CN(CC2=Cc3cc(Cl)ccc3OC2)CC[C@H]1N1CCCCCC1,63.06,-
O=C(c1ccc2c(c1)OCCO2)N1CCCC(n2ccnc2)C1 (stereo not drawn),-,-13.67
CCOCc1ccc(CNc2cncc(-n3cccn3)n2)cc1,-,20.78
Fc1ccc(-c2noc([C@@H]3Cc4nc[nH]c4CN3)n2)cc1,5.683 & -3.402,-
CCc1ccc(C(=O)NCCCC2(C3OCCO3)CCOCC2)cc1,4.086 & 29.47,-
CNC(=O)Nc1cc(-c2ccc(Br)cc2)nn1CCO,2.164 & 22.95,-
[H][C@@]12C[C@@H](OC)C[C@]1([H])CN(C(=O)c1ccc(C)s1)C2,19.01,38.84 & 69.12
O=C(C1CC1)N1CCC2(CCN(Cc3cccc(F)c3)CC2)CC1.O=C(O)C(F)(F)F,-6.424 & -23.65,-11.85
Cc1cccc(NC2CCN(C(=O)Nc3cc(F)cc(F)c3)CC2)n1,32.84,-
CC(O)(CNc1ccc(Cl)c(C#N)n1)c1ccsc1 (stereo not drawn),8.846,-
Fc1ccc(-c2cnc(CN3CCCC3Cn3cccn3)o2)cc1 (stereo not drawn),-13.75,-
CCc1csc(C2CCCN(C(=O)c3ccccn3)C2)n1 (stereo not drawn),3.27,-
CCCNC(=O)NC(=O)CNC(C)(C)c1ccc2c(c1)OCO2,0.9899 & 23.89,24.18
O=C(O)c1ccnc(-c2ccnc(COc3ccc(Cl)cc3)n2)c1,-,-34.89
Cn1ccnc1CNCCNc1ncc(Cl)cc1Cl,-14.23,-
O=C(Cc1ccc2c(c1)OCCO2)N1CCCC(n2cccn2)C1 (stereo not drawn),-,16.43
Cc1n[nH]c(C)c1NC(=O)c1cccc(OCC(F)(F)F)n1,15.47,-
CN(C1CCCCC1)S(=O)(=O)N1CCN(Cc2ccon2)CC1,-12.19 & 9.35,-
COc1ccsc1C(=O)Nc1cc(Cl)c(=O)n(C)c1,-,2.818
Nc1ncccc1C(=O)NCc1cccc(Cl)c1,-19.97,-25.68
CCOCC(O)CN1CCN(C(=O)Cc2ccc(C)nc2)CC1 (stereo not drawn),-29.34,-
Cc1ccc(-c2cc(CS(=O)(=O)NC3CCCNC3=O)on2)cc1 (stereo not drawn),-,53.31
CCc1ccc(-c2cn(CCSc3ncn[nH]3)nn2)nc1,-14.11,-
COc1ccnc(N2CCN(Cc3nc(-c4ccoc4)no3)CC2)c1,-,12.28
Nc1nc2c(c(N3CCC(CCn4cccn4)CC3)n1)CCNCC2,8.447,-
Cc1cnn(-c2cccc(N3CCCC3)n2)c1,-,-9.899
COCC(=O)N1CCCN(Cc2cc(C(C)C)no2)CC1,102.1 & -8.837,-
Cc1ncc2c(n1)CCN(CCCc1nc3ccccc3o1)C2,-12.58,-1.766
CN(C)C(C(=O)N1CCC(CCO)CC1)c1ccccc1F (stereo not drawn),-,-37.66
COC(=O)CCc1c(C)nn(-c2nc(C)cc(=O)[nH]2)c1C,46.98,-
CCCNC(=O)CNc1cc(C(=O)NCC(F)(F)F)cc(F)c1C,-7.13,-10.78 & 5.1
COC(=O)c1ccc(C(=O)NCC2(O)CCOCC2)cc1,-8.625,-
COc1cccc(CCCn2cnnc2[S+](C)[O-])c1 (stereo not drawn),23.32,-
CN(CCO)Cc1cc(Cl)ccc1OCC(O)CN1CCCCCC1 (stereo not drawn),42.42,4.468
Fc1cccc(CN2CCC(c3n[nH]c4ncccc34)CC2)c1F,8.114,-
CN1CCCCC1c1ncc2c(n1)CCN(Cc1ccc(Cl)c(F)c1)C2 (stereo not drawn),48.75,-

The first 7 entries again:

* O=C(NCc1ccc(OCC2CC2)nc1)C1COc2ccccc2O1 (stereo not drawn) | Mtb glucose medium: -2.171%
* Cc1cc(F)cc(NC(=O)N(C)CC(C)(CO)CO)c1 | Mtb glucose medium: 29.33% & 1.746%; Mtb cholesterol medium: 13.72%
* Cc1nc(C2CCCN2Cc2ccn(C)c(=O)c2)no1 (stereo not drawn) | Mtb glucose medium: -15.32%
* O=C(CN1CCCC(c2ccn[nH]2)C1)Nc1nc2c(s1)CCCC2 (stereo not drawn) | Mtb glucose medium: 50.22%; Mtb cholesterol medium: 16.25%
* COc1cccc(-c2noc3c2CN(c2ncnc4c2CCC4)CC3)c1 | Mtb glucose medium: 21.03%
* Cc1ccc(CN(CCCN2CCOCC2)Cc2cncn2C)o1.O=C(O)CC(O)(CC(=O)O)C(=O)O | Mtb glucose medium: 23.3%
* CC(C)CN1Cc2nc(N3CCCC(C)C3)ncc2C1=O (stereo not drawn) | Mtb glucose medium: -20.83%